# Measured data: PubChem BioAssay AID504761 (Drosophila RNAi Screening Center, 2011)
# Purpose: 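Fly genes whose silencing reduces dengue virus type 2 infection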 (primary screen)
# System: D.Mel-2 cells from Drosophila
# Reagents: long dsRNA against Drosophila genes
# Conditions: infection with dengue virus type 2; dose and infection time not stated
# Measured: 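Per well on two replicate plates, imaging gave the percent of cells positive for viral envelope protein, ranked by infection, and a nuclear count of cells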
# Direction: infection score: higher = more virus-infected cells
# Rule for the call: 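Very low infection ranking in both replicate wells (chance probability at most 0.065), then a retest showing infection dropped 1.5-fold or more at p below 0.05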
# Calls: active = confirmed: knock-down lowers infection; inactive = not picked or not confirmed
# In all, the deposit lists about 22,000 reagents; this is an unselected part of those that have a named target and a result. Over the whole deposit, 116 (0.52%) got an active call. 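Calls depend on retest data that are not deposited; infection was ranked per plate without normalising between plates; the unit of the infection score is not given.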 A number with no mark means an inactive call. Further read-outs or replicates are left out here. Reagent sequences are not shown. Not stated in the record: the amount of reagent, the time to read-out.
gene,DRSC id,"infection score, replicate 1"
CG1503,DRSC20512,3.52
CG6325,DRSC16020,18.8
mei-9 (meiotic 9),DRSC18792,10.7
Ufsp1 (UFM1 specific peptidase 1),DRSC04958,1.57
Ufsp1 (UFM1 specific peptidase 1),DRSC27352,17.3
Argp (Arginine phosphatase),DRSC16510,3.19
CG17404,DRSC15234,5.85
mi (minus),DRSC04498,2
mi (minus),DRSC29425,9.61
CG9667,DRSC16535,18.7
CG9667,DRSC23667,11.8
CG9581,DRSC20695,8.23
CG9581,DRSC22247,1.88
snoRNA:Me18S-C1280 (retired record),DRSC26813,11.3
Lac (Lachesin),DRSC07452,20.8
CCT3 (Chaperonin containing TCP1 subunit 3),DRSC16602,23.3
CG16868,DRSC06633,16.8
CG13086,DRSC02190,5.89
CG13086,DRSC27538,12.3
CG12170,DRSC12199,5.98
lab (labial),DRSC12627,2.37
lab (labial),DRSC25048,4.32
RSG7 (Regulator of G-protein signaling 7),DRSC20274,3.08
RSG7 (Regulator of G-protein signaling 7),DRSC22852,1.67
